Anti-infective test results gathered from many reports (values: NIAID ChemDB through PubChem).

Common to all: tests in culture; species: Mycobacterium tuberculosis

Two numbers with a dash give a range or band. A number after MIC or MFC names an inhibition level or a share of isolates. Percent inhibition refers to the dose given; in toxicity tests it is the harm to the cells. An empty or dashed field is not shown. Neighbouring rows are from separate reports. MIC bound: limit read from a one-dose screen.

SMILES	tested at	strain or isolate	measure	read by	changes	result
CCOC(=O)c1[nH]c2ccc(NC(=O)OC(C)(C)C)cc2c1C		H37Rv	MIC90	resazurin		>100 µM
O=[N+]([O-])C1=CC(=N/Br)/C=CC/1=N\Br		H37Rv	MIC bound	BACTEC		>12.5 µg/mL
O=C(CSc1nnc(-c2ccccn2)s1)N/N=c1/scc(-c2ccccc2Br)n1-c1ccccc1		Clinical isolate 190	MIC			>80 µg/mL
S=c1[nH]nc(CCON=C(c2ccccc2)c2ccccc2)o1	12.5 µg/mL		inhibition			7–56%
CO[C@H]1/C=C/O[C@@]2(C)Oc3c(C)c(O)c4c(O)c(c5c(c4c3C2=O)NC2(CCN(CC(C)C)CC2)N=5)=NC(=O)/C(C)=C\C=C\[C@H](C)[C@H](O)[C@@H](C)[C@@H](O)[C@@H](C)[C@H](OC(C)=O)[C@@H]1C		3125 (rifampin-sensitive)	MIC			0.012 µg/mL
NCCC[C@H](N)CC(=O)N[C@H]1CNC(=O)[C@H]([C@H]2C[C@H](O)NC(N)=N2)NC(=O)/C(=C/NC(N)=O)NC(=O)[C@H](CO)NC(=O)[C@H](CO)NC1=O		Isolate VIM-S	MIC			5 µg/mL
CC(C)Oc1ccc(C(=O)NS(=O)(=O)c2ccc(N=Nc3c(O)n(-c4ccccc4)n(-c4ccccc4)c3=O)cc2)cc1		H37Rv	MIC	BACTEC		≥12.8 µg/mL
CO[C@H]1/C=C/O[C@@]2(C)Oc3c(C)c(O)c4c(O)c(c(/C=N/N5CCN(C6CCCC6)CC5)c(O)c4c3C2=O)NC(=O)/C(C)=C\C=C\[C@H](C)[C@H](O)[C@@H](C)[C@@H](O)[C@@H](C)[C@H](O)[C@@H]1C		Isolate 900240 drug-susceptible	MIC			0.5 µg/mL
Cc1ccc(C)c(CSc2nc(=O)[nH]c3nc[nH]c23)c1		H37Rv	MIC90			>6.25 µg/mL
CO[C@H]1/C=C/O[C@@]2(C)Oc3c(C)c(O)c4c(O)c(c5c(c4c3C2=O)NC2(CCN(CC(C)C)CC2)N=5)=NC(=O)/C(C)=C\C=C\[C@H](C)[C@H](O)[C@@H](C)[C@@H](O)[C@@H](C)[C@H](OC(C)=O)[C@@H]1C		510-3 (RIF-R)	MBC			32 µg/mL
O=C(CSc1nnc(-c2ccccn2)s1)N/N=c1/scc(-c2ccccc2)n1-c1ccccc1		Clinical isolate 331	MIC			80 µg/mL
NNC(=O)c1c(C2CCCC2)nc2ccccc2c1C1CCCC1		H37Ra	MIC	BACTEC		>6.25 µg/mL
O=C(NC(=O)c1c(Cl)nc2sccn12)Nc1ccc(Cl)cc1	12.5 µg/mL	H37Rv	inhibition	BACTEC		0%
COc1ccccc1CSc1ncnc2nc[nH]c12	6.25 µg/mL	H37Rv	inhibition			0%
CCCCS(=O)(=O)Nc1ccc2[nH]c(C(=O)NCc3cccc(F)c3)c(C)c2c1		H37Rv	MIC90	resazurin		>100 µM
C/C=C/c1ccc2c(c1)[C@@H](C)[C@H](c1ccc(OC)cc1)O2		Clinical isolate 13 638	MIC	resazurin / absorbance		7.8 µg/mL
CCN(CC)C(=O)c1cc(C2C3CC4CC(C3)CC2C4)c2ccccc2n1	6.25 µg/mL	H37Ra	inhibition	BACTEC		2%
CCCCS(=O)(=O)Nc1ccc2[nH]c(C(=O)NC(C)C)c(C)c2c1		H37Rv	MIC90	resazurin		1.56 µM
O=C(CSc1nnc(-c2ccccn2)s1)N/N=c1/scc(-c2cccc([N+](=O)[O-])c2)n1-c1ccccc1		Clinical isolate 180	MIC			80 µg/mL
COc1ccc(-c2nnc(CO/N=C(\C)c3ccccc3)o2)cc1	12.5 µg/mL		inhibition			7–56%
O=C(CSc1nnc(-c2ccccn2)s1)N/N=c1/scc(-c2ccccc2)n1-c1ccccc1Cl		H37Rv	MIC			>80 µg/mL
NC(=O)c1[nH]nc([C@@H]2O[C@H](CO)[C@@H](O)[C@H]2O)c1O	12.5 µg/mL	H37Rv	inhibition	BACTEC		-12%
Clc1ccc(CSc2nc3ccccc3[nH]2)cc1		My 331/88	MIC			>125 µM
CO[C@H]1/C=C/O[C@@]2(C)Oc3c(C)c(O)c4c(=O)c(c5oc6cc(N7CCN(CC(C)C)CC7)cc(=O)c6nc5c4c3=C2O)NC(=O)/C(C)=C\C=C\[C@H](C)[C@H](O)[C@@H](C)[C@@H](O)[C@@H](C)[C@H](OC(C)=O)[C@@H]1C		3113 (rifampin-sensitive)	MIC			0.006 µg/mL
FC(F)(F)c1ccc(CSc2nc3ccccc3[nH]2)cc1		My 331/88	MIC			32 µM
O=C(CSc1nnc(-c2ccccn2)s1)N/N=c1/scc(-c2ccccc2)n1-c1ccc([N+](=O)[O-])cc1		H37Rv	MIC			40 µg/mL
c1cc2ccc3ccc[n+]4c3c2[n+](c1)CC4	12.5 µg/mL	H37Rv	inhibition	BACTEC		-1%
NC(=O)c1cnc(Cl)cn1		CDC-BP-98	MIC			16 µg/mL
O=C(CSc1nnc(-c2ccccn2)s1)N/N=c1/scc(-c2ccccc2)n1-c1ccccc1Br		Clinical isolate 331	MIC			>80 µg/mL
Fc1ccc(CSc2nc3ccccc3[nH]2)cc1F		My 331/88	MIC			62 µM
COc1ccc([N-]/C(=N\n2c(=O)c(C)nn(C)c2=S)N(c2ccc(OC)cc2)c2nn3c(=O)c(C)n[n+](C)c3s2)cc1		H37Rv	MIC bound	resazurin		>6.25 µg/mL
NCCCC(N)CC(=O)NCC1NC(=O)C(CO)NC(=O)C(NC(=O)CC(N)CCCN)CNC(=O)C(C2CCN=C(N)N2)NC(=O)/C(=C/NC(N)=O)NC1=O		H37Rv	MIC			5 µg/mL
O=[N+]([O-])c1ccc(CSc2nc3ccccc3[nH]2)c([N+](=O)[O-])c1		My 331/88	MIC			8 µM
Clc1ccc(-c2nnc(CCON=C(c3ccccc3)c3ccccc3)o2)cc1	12.5 µg/mL		inhibition			7–56%
CCCCS(=O)(=O)Nc1ccc2[nH]c(C(=O)NCC)c(C)c2c1		H37Rv	MIC90	resazurin		6.25 µM
CCOc1nc(N)c(C(N)=O)cc1C#N		H37Rv	MIC bound	BACTEC		>12.5 µg/mL
CN[C@@H]1[C@H](O[C@H]2[C@H](O[C@H]3[C@H](O)[C@@H](O)[C@H](N=C(N)N)[C@@H](O)[C@@H]3N=C(N)N)O[C@@H](C)[C@]2(O)C=O)O[C@@H](CO)[C@H](O)[C@H]1O		9363 (streptomycin-S isoniazid-R)	MIC			<4 µg/mL
Cc1ccc(S(=O)(=O)N(CCOc2c3occc3cc3ccc(=O)oc23)CCN(CCN(CCOc2c3occc3cc3ccc(=O)oc23)S(=O)(=O)c2ccc(C)cc2)S(=O)(=O)c2ccc(C)cc2)cc1	12.5 µg/mL	H37Rv	inhibition	BACTEC		5%
NC(=S)c1cccc(CSc2nc3ccccc3[nH]2)c1		My 331/88	MIC			62 µM
CCN(CC)c1ccc2nc3ccc(N(CC)CC)cc3[n+](-c3ccccc3)c2c1.[Cl-]	12.5 µg/mL	H37Rv	inhibition	BACTEC		99%
O=c1nc(SCc2cccc(Br)c2)c2[nH]cnc2[nH]1		H37Ra	MIC			>12.8 µg/mL
O=c1cc(CO)oc2c3c(cc(O)c12)OCC(COC1OC(CO)C(O)C(O)C1O)=CC3		H37Rv	MIC bound	BACTEC		>12.5 µg/mL
C/C(=N\OCCc1nnc(N2CCCCC2)o1)c1ccccc1	12.5 µg/mL		inhibition			7–56%
c1ccc(CCSc2nc3ccccc3[nH]2)cc1		My 331/88	MIC			>62 µM
Cn1c(=O)nc2n(-c3cccc(Br)c3)c3ccccc3nc-2c1=O	12.5 µg/mL	H37Rv	inhibition	BACTEC		42%
CCCCS(=O)(=O)Nc1ccc2[nH]c(C(=O)OCC)c(C)c2c1		DRM167 32x11	MIC90	resazurin	G240S DG167-resistant	>100 µM
Cc1cccc(C(N)=Nc2nc(-c3ccccn3)cc3ccccc23)c1		J-2847	MIC			0.5 µg/mL
CCCCC/C=C\C/C=C\CCCCCCCC(=O)N[C@H]1C[C@@H](O)[C@@H](O)NC(=O)[C@@H]2[C@@H](O)[C@@H](C)CN2C(=O)[C@H]([C@H](C)O)NC(=O)[C@H]([C@H](O)[C@@H](O)c2ccc(O)cc2)NC(=O)[C@@H]2C[C@@H](O)CN2C(=O)[C@H]([C@H](C)O)NC1=O	12.5 µg/mL	H37Rv	inhibition	BACTEC		24%
CCCCS(=O)(=O)Nc1ccc2[nH]c(CO)c(C)c2c1		H37Rv	MIC90	resazurin		>100 µM
CNc1ccc(Nc2cc(S(=O)(=O)O)c(N)c3c2C(=O)c2ccccc2C3=O)cc1	12.5 µg/mL	H37Rv	inhibition	BACTEC		5%
Cc1ccc(-c2cs/c(=N/NC(=O)CSc3nnc(-c4ccccn4)s3)n2-c2ccccc2)cc1		H37Rv	MIC			40 µg/mL
C/C=C/c1ccc2oc(-c3ccc(O)c(OC)c3)c(C)c2c1		Clinical isolate 73-A	MIC	resazurin / absorbance	isoniazid rifampicin pyrazinamide resistant	1.9 µg/mL
Oc1ccc(N=C2N=c3c(c4ccccc4c4ccccc34)=N2)c2ccccc12		H37Rv	MIC	resazurin		>6.25 µg/mL
COc1ccc(Sc2ncnc3nc[nH]c23)cc1		H37Rv	MIC90			>6.25 µg/mL
NNC(=O)c1ccncc1		Clinical isolate 57	MIC	resazurin / absorbance		0.03 µg/mL
CCCCCCCCCC1=C(C#N)C(=O)OCCN1C	12.5 µg/mL	H37Rv	inhibition	BACTEC		0%
CCCCS(=O)(=O)Nc1ccc2[nH]c(C(=O)N(C)C)c(C)c2c1		H37Rv	MIC90	resazurin		6.25 µM
N[C@@H]1CN(c2c(F)cc3c(=O)c(C(=O)O)cn([C@@H]4C[C@@H]4F)c3c2Cl)CC12CC2		Clinical strain	MIC	resazurin	Gyrase Glu540Asp	0.031–0.125 µg/mL
CCCCSc1nc2ccccc2[nH]1		My 331/88	MIC			>125 µM
Cn1c(=O)n2n(c1=O)C1C3C4C5C3C13COCC53C42		H37Rv	MIC bound	resazurin		>6.25 µg/mL
c1ccc(CSc2nc3ccccc3[nH]2)cc1		My 331/88	MIC			250 µM
O=c1nc(SCc2ccc(F)cc2C(F)(F)F)c2[nH]cnc2[nH]1		H37Ra	MIC			16 µg/mL
Cc1cccc(-c2cs/c(=N/NC(=O)CSc3nnc(-c4ccccn4)s3)n2-c2ccccc2)c1		Clinical isolate 180	MIC			20 µg/mL
NNC(=O)c1ccc2ccccc2n1		H37Ra	MIC	BACTEC		>6.25 µg/mL
C[C@@H]1CN(c2c(F)c(N)c3c(=O)c(C(=O)O)cn(C4CC4)c3c2F)C[C@H](C)N1		H37Rv	MIC			0.2 µg/mL
NC(=O)c1cc(C2C3CC4CC(C3)CC2C4)c2ccccc2n1	6.25 µg/mL	H37Ra	inhibition	BACTEC		98%
CO[C@H]1/C=C/O[C@@]2(C)Oc3c(C)c(O)c4c(O)c(c(/C=N/N5CCN(C)CC5)c(O)c4c3C2=O)NC(=O)/C(C)=C\C=C\[C@H](C)[C@H](O)[C@@H](C)[C@@H](O)[C@@H](C)[C@H](OC(C)=O)[C@@H]1C		PR503	MIC			≤0.02 µg/mL
CC(C)CSc1nc2ccccc2[nH]1		My 331/88	MIC			>125 µM
CC1=NN(c2ccc(Cl)cc2S(=O)(=O)[O-])C(=O)C1N=Nc1ccc(OS(=O)(=O)c2ccc(C)cc2)cc1.[Na+]		H37Rv	MIC	BACTEC		≥12.8 µg/mL
Cc1ccc(Sc2nc(Cl)nc3nc[nH]c23)cc1		H37Ra	MIC			>12.8 µg/mL
NC(CCP(=O)(O)CCC1C=CC=CC1)C(=O)O		H37Rv	MIC bound	BACTEC		>12.5 µg/mL
C/C(=N\OCc1nnc(N2CCCCC2)o1)c1ccccc1	12.5 µg/mL		inhibition			7–56%
COc1ccc2c(c1OC)C(C(Cl)(Cl)Cl)N1CCc3cc4c(cc3C1=C2C=O)OCO4	12.5 µg/mL	H37Rv	inhibition	BACTEC		62%
O=C(NCc1ccccc1)c1cc(C2C3CC4CC(C3)CC2C4)c2ccccc2n1		H37Ra	MIC	BACTEC		3.125 µg/mL
O=C(N/N=C/C(F)(F)F)c1ccncc1	0.5 µM		inhibition	BACTEC		99%
NNC(=O)c1cc(C2CCCC2)c2c(C3CCCC3)cccc2n1	6.25 µg/mL	H37Ra	inhibition	BACTEC		90%

11 of the rows above, restated:

SMILES	tested at	strain or isolate	measure	read by	changes	result
NC(=O)c1[nH]nc([C@@H]2O[C@H](CO)[C@@H](O)[C@H]2O)c1O	12.5 µg/mL	H37Rv	inhibition	BACTEC		-12%
COc1ccc(Sc2ncnc3nc[nH]c23)cc1		H37Rv	MIC90			>6.25 µg/mL
CO[C@H]1/C=C/O[C@@]2(C)Oc3c(C)c(O)c4c(O)c(c(/C=N/N5CCN(C6CCCC6)CC5)c(O)c4c3C2=O)NC(=O)/C(C)=C\C=C\[C@H](C)[C@H](O)[C@@H](C)[C@@H](O)[C@@H](C)[C@H](O)[C@@H]1C		Isolate 900240 drug-susceptible	MIC			0.5 µg/mL
NCCCC(N)CC(=O)NCC1NC(=O)C(CO)NC(=O)C(NC(=O)CC(N)CCCN)CNC(=O)C(C2CCN=C(N)N2)NC(=O)/C(=C/NC(N)=O)NC1=O		H37Rv	MIC			5 µg/mL
NNC(=O)c1ccc2ccccc2n1		H37Ra	MIC	BACTEC		>6.25 µg/mL
C/C=C/c1ccc2c(c1)[C@@H](C)[C@H](c1ccc(OC)cc1)O2		Clinical isolate 13 638	MIC	resazurin / absorbance		7.8 µg/mL
S=c1[nH]nc(CCON=C(c2ccccc2)c2ccccc2)o1	12.5 µg/mL		inhibition			7–56%
O=C(N/N=C/C(F)(F)F)c1ccncc1	0.5 µM		inhibition	BACTEC		99%
CO[C@H]1/C=C/O[C@@]2(C)Oc3c(C)c(O)c4c(=O)c(c5oc6cc(N7CCN(CC(C)C)CC7)cc(=O)c6nc5c4c3=C2O)NC(=O)/C(C)=C\C=C\[C@H](C)[C@H](O)[C@@H](C)[C@@H](O)[C@@H](C)[C@H](OC(C)=O)[C@@H]1C		3113 (rifampin-sensitive)	MIC			0.006 µg/mL
O=C(CSc1nnc(-c2ccccn2)s1)N/N=c1/scc(-c2ccccc2)n1-c1ccc([N+](=O)[O-])cc1		H37Rv	MIC			40 µg/mL
NNC(=O)c1c(C2CCCC2)nc2ccccc2c1C1CCCC1		H37Ra	MIC	BACTEC		>6.25 µg/mL